Test results published in patent US20240043504A1 (published 2024).
Positions count from the first letter of the chain named.

B1: mAb10934 (antibody, V domains shown)
VH: not shown
VL: DIQMTQSPSSLSASVGDRVTITCQASQDIWNYINWYQQKPGKAPKLLIYDASNLKTGVPSRFSGSGSGTDFTFTISSLQPEDIATYYCQQHDDLPPTFGQGTKVEIKR
B2: mAb10935 (antibody, V domains shown)
VH: EVQLVESGGGLVQPGGSLRLSCAASGFTVSSNYMSWVRQAPGKGLEWVSLIYSGGSTYYADSVKGRFTISRHNSKNTLYLQMNSLRSEDTAVYYCARVPLGDYYYGMDVWGQGTTVTVSS
VL: B1 VL with W30N, N31K, I33L, K55E, H91S, D93N, P96L, Q100G
B3: mAb10922 (antibody, V domains shown)
VH: EVQLVESGGGLVQPGGSLRLSCAASGFTFSIYEMNWVRQAPGKGLEWVSYITSSGTTIYYADSVKGRFTISRDNAKNSLYLQMNSLRAEDTAVYYCASSSSSGYYFDYWGQGTLVTVSS
VL: not shown
B4: mAb10930 (antibody, V domains shown)
VH: EVQLVESGGGLVQPGRSLRLSCAASGFTFDDYAMYWVRQAPGKGLEWVSGISWNSGSIGYADSVKGRFTISRDNAKNSLYLQMNSLRAADTALYYCAKDKDWNSRGYYYYGMDVWGQGTTVTVSS
VL: not shown
B5: mAb10938 (antibody, V domains shown)
VH: EVQLVESGGGLVQPGGSLRLSCAVSGFTVSSNYMSWVRQAPGKGLEWVSLIYSGGSTFYADSVKGRFTISRHNSKNTLYLQMNSLRAEDTAVYYCAREGGYSYDYNYWGQGTLVTVSS
VL: B1 VL with W30R, I33L, K55E, S65I, H91Y, D93N, P96I, K103R, V104L
B6: mAb10939 (antibody, V domains shown)
VH: EVQLVESGGGLVQPGGSLRLSCAASGLTVSSNYMNWVRQVPGKGLEWVSVIYSGGSKFYVDSVKGRFTISRHNSKNTLYLQMNSLRPEDTAVYYCTRDAQYYGMDVWGQGTTVTVSS
VL: DIQMTQSPSSLSASVGDRVTITCRASQSISTYLHWYQQKPGEAPKLLIYAASSLQSGVPSRFSGSGSGTDFTLTISSLQPEDFATYYCQQSYSTPPEIFGQGTKLEIKR
B7: mAb10982 (antibody, V domains shown)
VH: EVQLVESGGGLVQPGGSLRLSCAASGLTVSSNYMSWVRQAPGKGLEWVSVIYSGGTTYYADSVKGRFTISRHNSKNTLSLQMNSLRAEDTAVYYCARGEGANYYGMDVWGQGTTVTVSS
VL: QSVLTQPPSVSGAPGQRVTISCTGSSSNIGTGYDVHWYQQLPGTAPKLLIYGNSNRPSGVPDRFSGSKSGTSASLAITGLQAEDEADYYCQSYDSSLSGYVVFGGGTKLTVLG
B8: mAb10984 (antibody, V domains shown)
VH: EVQLVESGGGLVQPGGSLRLSCAASGLTVNRNYMSWVRQAPGKGLEWVSLIYSGGSTYYADSVKGRFTISRDNSKNTLYLQMNSLRLEDTAVYYCARGELGIPYGMDVWGQGTTVTVSS
VL: QSVLTQPPSVSAAPGQKVTISCSGSSSNIGNNYVSWYQQLPGTAPKLLIYDNNKRPSGIPDRFSGSKSGTSATLGITGLQTGDEADYYCGTWDSSLSAGVFGGGTKLTVLG
B9: mAb10985 (antibody, V domains shown)
VH: EVQLVESGGGLVQPGRSLRLSCAASGFTFDDYAMHWVRQAPGKGLEWVSGISWNRGSIGYADSVKGRFTISRDNAKNSLYLQMSSLRAEDTALYYCAKDGERWDSVVVPSARNGMDVWGQGTTVTVSS
VL: B7 VL with T31A, Y100S, V101Y, G105T, L109V
B10: mAb10971 (antibody, V domains shown)
VH: EVQLVESGGGLIQPGGSLRLSCAASGVTVSSNYMSWVRQAPGKGLEWVSVIYSGGSTFYSDSVKGRFSISRDNSKNTLYLQMNSLRAEDTAVYYCARDLYYYGMDVWGQGTTVTVSS
VL: DIQLTQSPSFLSASVGDRVTITCRASQGISTYLAWYQQKPGKAPKLLIYAASTLQSGVPSRFSGSGSGTEFTLTISSLQPEDFATYYCQQLDSYPGLTFGGGTKVEIKR
B11: mAb10966 (antibody, V domains shown)
VH: EVQLVESGGGLVQPGGSLRLSCAASGLTVSSNYMSWVRQAPGKGLEWVSVIYSGGSTFYADSVKGRFTISRDNSKNTLYLQMNSLRPEDTAVYYCAREGRIAATGYGMDVWGQGTTVTVSS
VL: B1 VL with W30S, I33L, K55G, G66R, Q89H, H91Y, D93N, P96Q, Q100P, E105D
B12: mAb10954 (antibody, V domains shown)
VH: EVQLVESGGGLVQPGGSLRLSCAASGITVSSNYMSWVRQAPGKGLEWVSLIYSGGSTYYADSVKGRFTISRDNSKNTLYLQMNSLRVEDTAVYYCARDHGMAAAGYNYWGQGTLVTVSS
VL: B1 VL with W30N, N31K, I33L, K55E, S76N, I83F, Y87F, H91Y, D93N, T97A
B13: mAb11004 (antibody, V domains shown)
VH: QVQLVESGGGVVQPGRSLRLSCVASGFTFSIYGMDWVRQAPGKGLEWVAVISYDGSNKYYADSVKGRFTISRDNSKNTLYLQMNSLRPEDTAVYYCAKDREAAADAFDIWGQGTMVTVSS
VL: DIQMTQSPSSVSASVGDRVTITCRASQGISSWLAWYQQKPGKAPKLLIYAASSLHSGVPSRFSGSGSGTDFTLTISSLQPEDFATYYCQQANSFRLTFGGGTKVEIKR
B14: mAb11006 (antibody, V domains shown)
VH: EVQLVESGGGLVQPGGSLRLSCAASGFIVSRNYMSWVRQAPGKGLEWVSVIYSGGSTFYADSVKGRFTISRHNSKNTLYLQMNSLKAEDTAVYYCARELRGYFDYWGQGTLVTVSS
VL: DIQLTQSPSFLSASVGDRVTITCWASQGISSYLAWYQQKPGKAPKLLIYAASTLQSGVPSRFSGSGSGTEFTLTISSLQPEDFATYYCQLLNSYPYTFGQGTKLEIKR
B15: mAb11008 (antibody, V domains shown)
VH: EVQLVESGGGLVQPGGSLRLSCAASGFTVSSNYMTWVRQAPGKGLEWVSVIYSGGSTFYADSVKGRFTISRHNSENTLYLQMNSLRAEDTAVYYCARDLAAAGTDYWGQGALVTVSS
VL: B14 VL with E81D, L90H, P95L
B16: mAb10998 (antibody, V domains shown)
VH: EVQLVESGGGLVHPGGSLRLSCAASGLTVSSNYMSWVRQAPGKGLEWVSVIYSGGSTYYADSVKGRFTISRHNSKNTLFLQMNSLRAEDTAVYYCARDRPITGTTLDVWGQGTTVTVSS
VL: B6 VL with S12F, T31S, H34N, E42K, T85F, S91T, E97I, I98T, K104R
B17: mAb10922 (antibody, V domains shown)
VH: B3 VH
VL: not shown
B18: mAb10930 (antibody, V domains shown)
VH: B4 VH
VL: not shown
B19: mAb10935 (antibody, V domains shown)
VH: B2 VH
VL: B1 VL with W30N, N31K, I33L, K55E, H91S, D93N, P96L, Q100G
B20: mAb10938 (antibody, V domains shown)
VH: B5 VH
VL: B1 VL with W30R, I33L, K55E, S65I, H91Y, D93N, P96I, K103R, V104L
B21: mAb10939 (antibody, V domains shown)
VH: B6 VH
VL: B6 VL

Each binder was assayed against SARS-COV-2 RBD-MMH (SARS-CoV-2 RBD extracellular domain with a C-terminal myc-myc-hexahistidine tag) (SARS-CoV-2) (assay: SPR Biacore 25C, mAb captured).

Binder	Kd	t1/2	50 nM Ag Bound (RU)	koff	kon
B1	4.32 nM	2.7 min			
B2	18.9 nM	2.9 min	694 RU		
B3	5.11 nM	5.8 min	786 RU		
B4	20.8 nM	6.2 min	328 RU	0.00185 s⁻¹	89000 M⁻¹ s⁻¹
B5	5.28 nM	33.2 min	180 RU		
B6	20 nM	3.4 min	241 RU		
B7	20.6 nM	4.3 min	188 RU		
B8	2.39 nM	31.2 min	387 RU		
B9	1.54 nM	8 min	749 RU		
B10	2.67 nM	25.8 min	358 RU		
B11	2.81 nM	26.3 min	343 RU		
B12	1.73 nM	28.5 min			
B13	16.6 nM		161 RU		
B14	4.1 nM	31.5 min	49 RU		
B15	59.4 nM	2.9 min	56 RU		
B16	117 nM	0.5 min	69 RU		

These binders were tested against SARS-COV-2 RBD extracellular domain expressed with a C-terminal myc-myc-hexahistidine tag (SARS-COV-2 RBD-MMH) (SARS-CoV-2) (assay: SPR).

Binder	90 nM Ag Bound (RU)	Kd	t1/2	koff	kon
B17	120 RU	2.41 nM	7.8 min		
B18	59.6 RU	27 nM	3.5 min	0.00334 s⁻¹	124000 M⁻¹ s⁻¹
B19	108 RU	10.7 nM	2.8 min		
B20	61.5 RU	2.41 nM	66 min		
B21	82.3 RU	17.4 nM	4.1 min		
